## Share of PSTVd loop 6 variants by leaf site

Reference: Wu et al. 2024, doi:10.1371/journal.ppat.1012142.

PSTVd intermediate strain, loop 6: wild type UGACCGCGAG, pool pattern UNNNCGNNNG; upper and lower strand joined, each 5' to 3', the first 5 letters being the upper strand, closing pairs included.

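Three N. benthamiana plants were inoculated with the whole mutant pool. Samples came from the inoculated region at 5 days, the leaf margin at 10 and upper systemic leaves at 12.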

Values are reads per thousand in the sample; higher means more abundant, 0 means not found.
Each site shows the three plants.
"Pool" is the share in the plasmid pool used as inoculum, on the same scale.
The inoculated region was read from the minus strand, the other sites from the plus strand.
IR is the inoculated region, LM the leaf margin, Sys the systemic leaves.
With 36,220-57,551 reads a sample, very low values are single reads.

With UAUGCGCACG (pool 0.222) the assay gave IR 0.0869 / 0.0898 / 0.0369; LM 0 / 0 / 0.0232; Sys 0 / 0 / 0. UAAUCGAAUG (pool 0.405) gave IR 0.209 / 0.180 / 0.0738; LM 0 / 0 / 0; Sys 0 / 0 / 0. With UCCUCGAAGG (pool 0.144) the assay gave IR 0.122 / 0.162 / 0.0738; LM 0 / 0 / 0; Sys 0 / 0 / 0. With UGACCGCGGG (pool 0.248) the assay gave IR 0.313 / 0.341 / 0.369; LM 0.745 / 1.01 / 0.975; Sys 0.162 / 0.263 / 0.328. With UGAGCGUGAG (pool 0.261) the assay gave IR 0.817 / 0.593 / 0.572; LM 0.110 / 0.0757 / 0.0232; Sys 0 / 0.0606 / 0.0205. UGCCCGUUCG (pool 0.144) gave IR 0.0869 / 0.0719 / 0.166; LM 0.0552 / 0 / 0; Sys 0 / 0 / 0. UACUCGGACG (pool 0.261) gave IR 0.695 / 0.629 / 0.443; LM 0.0552 / 0.0252 / 0.0696; Sys 0 / 0 / 0. For UCGACGCGAU (pool 0.0131) the result was IR 0.0348 / 0.126 / 0.111; LM 0.0552 / 0 / 0.0232; Sys 0 / 0 / 0.

With UUGACGCCAG (pool 0.183) the assay gave IR 0.122 / 0.126 / 0.0738; LM 0 / 0 / 0; Sys 0 / 0 / 0. For UAAGCGUAGG (pool 0.301) the result was IR 0.0869 / 0.0539 / 0.0553; LM 0.0276 / 0 / 0; Sys 0 / 0.0202 / 0. With GGACCGACCG (pool 0.0131) the assay gave IR 0.0174 / 0 / 0.0369; LM 0 / 0 / 0; Sys 0 / 0 / 0. For UACCCGAAAG (pool 0.222) the result was IR 0.626 / 0.521 / 0.498; LM 0.0828 / 0.177 / 0.0928; Sys 0 / 0 / 0. With UCUACGGCGG (pool 0.196) the assay gave IR 0.139 / 0.0719 / 0.166; LM 0.0552 / 0 / 0; Sys 0 / 0 / 0. UUUACGAGAG (pool 0.261) gave IR 0.730 / 0.719 / 0.516; LM 0.138 / 0.126 / 0.0696; Sys 0 / 0 / 0. With UAGCCGCUUG (pool 0.601) the assay gave IR 0.139 / 0.108 / 0.0738; LM 0 / 0 / 0; Sys 0 / 0 / 0. UGACCGUCUG (pool 0.458) gave IR 0.278 / 0.431 / 0.350; LM 0.193 / 1.01 / 0.0464; Sys 0.0719 / 0.323 / 0.246.

With UGUACGUAGG (pool 0.235) the assay gave IR 0.0869 / 0.126 / 0.0738; LM 0.0276 / 0 / 0.0464; Sys 0 / 0 / 0. UAGCCGUGGG (pool 0.222) gave IR 0.0869 / 0.0898 / 0.0553; LM 0 / 0 / 0; Sys 0 / 0 / 0. UAAACGGGUG (pool 0.131) read IR 0.539 / 0.665 / 0.553; LM 0.110 / 0.0504 / 0.0928; Sys 0 / 0.0202 / 0.0205. UUAACGCUUG (pool 0.235) gave IR 0.174 / 0.126 / 0.111; LM 0 / 0 / 0.0464; Sys 0 / 0 / 0. For UGACCGUGUG (pool 0.484) the result was IR 0.295 / 0.305 / 0.295; LM 0.221 / 0.656 / 0.139; Sys 0.198 / 0.101 / 0.164. With UUUCCGAUGG (pool 0.340) the assay gave IR 0.0695 / 0.108 / 0.0922; LM 0 / 0 / 0.0232; Sys 0 / 0 / 0. UUUGCGGCUG (pool 0.209) read IR 0.191 / 0.0898 / 0.0553; LM 0 / 0 / 0; Sys 0 / 0 / 0. UCAGCGGCGG (pool 0.170) read IR 0.174 / 0.108 / 0.0922; LM 0.0276 / 0 / 0; Sys 0 / 0 / 0.

UCCGCGGUUG (pool 0.235) gave IR 0.0348 / 0.126 / 0.0922; LM 0 / 0 / 0; Sys 0 / 0 / 0.0205. UUGCCGAUCG (pool 0.275) read IR 0.0695 / 0.0719 / 0.0369; LM 0.0276 / 0 / 0; Sys 0 / 0 / 0.

The authors trace changes outside the varied positions to PCR and sequencing errors or to mutation in the plant; presence does not show that a variant is infectious alone.
Wild type was 20.7 per thousand in the pool and the most common sequence in every sample (inoculated region 195, 198, 203; leaf margin 629, 591, 734; systemic leaves 942, 870, 868).